Test system: SHIV
Experiment: p27 antigen capture in SHIV infected cells
Settings: 0.1, 1, 10 or 100 nM drug prior to infection

Structure (SMILES): c1ccc(NCc2ccc(CNc3ccccn3)cc2)nc1
- SHIV infection (p27 antigen levels): inhibited SHIV infection at all concentrations tested
